# PubChem BioAssay AID504761, Drosophila RNAi Screening Center, 2011
# Aim: 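Insect host genes that dengue virus relies on to spread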 (primary screen)
# System: D.Mel-2 cells from Drosophila
# Reagents: long dsRNA against Drosophila genes
# Treatment: infection with dengue virus type 2; dose and infection time not stated
# Read-out: 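Per well on two replicate plates, imaging gave the percent of cells positive for viral envelope protein, ranked by infection, and a nuclear count of cells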
# Scale: infection score: higher = more virus-infected cells; cell count: higher = more cells in the well
# Rule for the call: 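Very low infection ranking in both replicate wells (chance probability at most 0.065), then a retest showing infection dropped 1.5-fold or more at p below 0.05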
# Calls: active = confirmed: knock-down lowers infection; inactive = not picked or not confirmed
# In all, the deposit lists about 22,000 reagents; this is a random part of those that have a named target and a result. Over the whole deposit, 116 (0.52%) were called active. 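Calls depend on retest data that are not deposited; infection was ranked per plate without normalising between plates; the unit of the infection score is not given.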 The raw values are shown without normalisation. Names joined by + are all predicted targets of the reagent. Not given: the amount of reagent, the time to read-out.
predicted target,amplicon,"infection score, replicate 1","infection score, replicate 2","cell count, replicate 1","cell count, replicate 2",activity call
Sirup,DRSC03031,0.71,8.66,6313,5578,inactive
Sirup,DRSC29298,25.6,,2415,202,inactive
Nlg1,DRSC12485,2.56,4.46,6373,6365,inactive
Nlg1,DRSC12532,2.97,10.4,6664,5559,inactive
Nlg1,DRSC12533,15.2,15.1,6407,6084,inactive
Nlg1,DRSC12539,6.07,9.63,6329,6410,inactive
Snap29,DRSC04721,9.28,11.3,2048,2925,inactive
Snap29,DRSC24658,1.53,2.6,6028,5930,inactive
CG10638,DRSC09762,3.77,17.9,6176,3198,inactive
CG10638,DRSC29762,14.7,10.9,6891,6681,inactive
Septin5,DRSC06843,15.5,13.7,4845,6125,inactive
Septin5,DRSC29954,8.5,7.22,153,6040,inactive
CG33998,DRSC05747,2.31,3.19,6411,6984,inactive
sno,DRSC20378,1.23,5.5,7085,6531,inactive
CG9967,DRSC00742,6.76,4.68,5648,6193,inactive
CG9967,DRSC25344,15.6,5.29,6003,6291,inactive
Pbgs,DRSC09718,1.53,3.05,6529,6131,inactive
CG7295,DRSC00699,14.1,10.9,6768,6036,inactive
Usp47,DRSC11313,10.4,16.1,2511,5109,inactive
CG11842,DRSC14400,1.74,9.58,5513,6200,inactive
CG11842,DRSC24924,1.65,3.08,7045,6846,inactive
CG7290,DRSC10800,3.11,3.93,6924,6390,inactive
CG7290,DRSC26651,6.09,1.81,6318,6191,inactive
RpL35,DRSC18347,3.26,1.18,1656,1605,inactive
CG7182,DRSC10780,4.26,4.13,6832,6971,inactive
CG7182,DRSC24776,2.09,1.05,6809,6461,inactive
Girdin,DRSC08292,27.8,1.91,5837,5928,inactive
gl,DRSC27242,6.83,2.34,6791,6238,inactive
CG9014,DRSC01979,0.51,0.65,6891,6743,active
RpS24,DRSC04414,3.88,1.79,6216,6935,inactive
RpS24,DRSC28412,8.15,8.59,1117,966,inactive
CG34266,DRSC08323,3.78,5.26,6140,5473,inactive
speck,DRSC04608,22.3,16.9,6257,6482,inactive
speck,DRSC27654,33.1,23.5,5588,6024,inactive
Dscam3,DRSC14525,3.15,3.34,5742,5472,inactive
Dscam3,DRSC16376,5.09,1.74,5482,5853,inactive
SmydA-2,DRSC10296,7.07,3.11,6552,6872,inactive
CG3609,DRSC00620,1.94,18.7,6195,5826,inactive
CG3609,DRSC29005,13.7,15,5995,5331,inactive
CG16710,DRSC15136,4.29,4.07,5738,3936,inactive
CG5877,DRSC19963,9.52,0.54,6625,6863,inactive
CG5877,DRSC28413,10.1,10.7,5039,4581,inactive
TTLL4A,DRSC02528,25.1,3,5816,5940,inactive
TTLL4A,DRSC28124,23.1,10.3,5007,5728,inactive
nrv2,DRSC00948,4.78,0.7,6208,5872,inactive
nrv2,DRSC03383,10.9,13.7,5739,5432,inactive
Hph,DRSC12164,2.69,8.4,6327,6747,inactive
Hph,DRSC12251,2.89,2.87,6224,6700,inactive
Hph,DRSC25979,12.2,1.02,6283,6688,inactive
Sprn,DRSC10132,2.05,11,6388,6526,inactive
CG4456 + Hsp22,DRSC11187,4.97,2.1,6114,6246,inactive
CG4456 + Hsp22,DRSC11192,20.4,12.6,5367,3139,inactive
CG5541,DRSC19946,5.7,2.05,6455,6597,inactive
Rlip,DRSC16828,6.15,1.57,6102,7092,inactive
CG17732,DRSC10283,4.06,7.08,6572,6555,inactive
CG17660,DRSC00513,2.22,1.71,6256,6066,inactive
pip,DRSC11382,2.6,2,6394,6365,inactive
pip,DRSC28579,,,388,344,inactive
